Results: patent US5997871A (priority 1996, dated 1999)
Like-named read-outs stand apart in the source and are kept apart here.

Tests used:
HIV = HIV assays (anti-viral effects)
KS tumors and cells = experiment: Overall anti-KS activity of hCG preparations and peptides in vitro and in vivo
CD4+ T cells = experiment: CD4+ T cell levels in HIV patients treated with hCG preparations; format: in vivo, human; conditions: for CD4+ T cells: patient PH-SPBE
[1] = Weight change in patients treated with hCG preparations; format: in vivo, human
[2] = patient PH-OJ (on RT inhibitors), KS-C, 12,500 IU/week, Rx 31+ weeks, PreRX 14, M4
[3] = patient PH-VE (on RT inhibitors), KS-C, 12,500 IU/week, Rx 80+ weeks, PreRX 105, M4
[4] = patient PH-VE, KS-C, 30,000 IU/week (M20), PreRX 105, M20 (text: 68 weeks)
[5] = patient PH-OJ (on RT inhibitors), KS-C, 12,500 IU/week, RT-PCR, PreRX 100,000
[6] = patient PH-VE (on RT inhibitors), KS-C, 12,500 IU/week, NASBA, PreRX 230,000
[7] = patient PH-SPBE (on RT inhibitors), KS-C, 25,000 IU/week, NASBA, PreRX 1,490,000, before Ritonavir was added
[8] = patient PG-4 (no other antiviral therapy), KS-C, 35,000 IU/week, Rx 16+ weeks, PreRX 47, M4

Substance: CR127: highly purified hCG preparation (heterodimer)
- activity in the HIV assays (HIV): inactive
- activities of native hCG preparations (anti-KS, anti-viral, pro-hematopoietic) mimicked or retained (KS tumors and cells): did not retain these activities

Substance: Pregnyl: commercial hCG preparation from Organon, Inc.
- CD4/mm^3 Rx (CD4+ T cells; patient PH-GF, KS-C, 12,500 IU/week, Rx 18+ weeks, PreRX 3, M2): 35 /mm^3
- CD4/mm^3 Rx (CD4+ T cells; patient PH-GRX (on RT inhibitors), KS-C, 12,500 IU/week, Rx 17+ weeks, PreRX 97, M2): 89 /mm^3
- CD4/mm^3 Rx (CD4+ T cells; patient PH-LE, KS-VC, 30,000 IU/week, Rx 12+ weeks, PreRX <5, M1): < 5 /mm^3
- CD4/mm^3 Rx (CD4+ T cells; patient PH-MP, KS-C, 30,000 IU/week, Rx 24+ weeks, PreRX 360, M3): 505 /mm^3
- CD4/mm^3 Rx (CD4+ T cells; [2]): 3 /mm^3
- CD4/mm^3 Rx (CD4+ T cells; patient PH-RF (on RT inhibitors), KS-V, 15,000 IU/week, Rx 12+ weeks, PreRX 0, M3): 17 /mm^3
- CD4/mm^3 Rx (CD4+ T cells; patient PH-SP (on RT inhibitors), KS-VC, 30,000 IU/week, Rx 8+ weeks, PreRX 6, M1): 5 /mm^3
- CD4/mm^3 Rx (CD4+ T cells; [3]): 160 /mm^3
- CD4/mm^3 Rx (CD4+ T cells; [4]): 204 /mm^3
- CD4/mm^3 Rx (CD4+ T cells; patient PO-BO (on RT inhibitors), KS-C, 12,500 IU/week, Rx 6+ weeks, PreRX 12, M1.5): 12 /mm^3
- CD4/mm^3 Rx (CD4+ T cells; patient PO-CJP (on RT inhibitors), KS-C, 12,500 IU/week, Rx 6+ weeks, PreRX 14, M1.5): 14 /mm^3
- CD4/mm^3 Rx (CD4+ T cells; patient PO-DU (on RT inhibitors), KS-VC, 12,500 IU/week, Rx 37+ weeks, PreRX 5, M2): 10 /mm^3
- CD4/mm^3 Rx (CD4+ T cells; patient PO-FY (on RT inhibitors), KS-C, 12,500 IU/week, Rx 6+ weeks, PreRX 180, M2): 202 /mm^3
- CD4/mm^3 Rx (CD4+ T cells; patient PO-GE (on RT inhibitors), KS-VC, 15,000 IU/week, Rx 48+ weeks, PreRX 10, M4): 10 /mm^3
- CD4/mm^3 Rx (CD4+ T cells; patient PO-LC (on RT inhibitors), KS-VC, 12,500 IU/week, Rx 12+ weeks, PreRX 70, M3): 72 /mm^3
- CD4/mm^3 Rx (CD4+ T cells; patient PO-RB (on RT inhibitors), KS-VC, 12,500 IU/week, Rx 4+ weeks, PreRX 50, 1M): 35 /mm^3
- Weight gain ([1]; patient PH-GF, KS-C, 12,500 IU/week, Rx 18+ weeks): +2 Kg
- Weight gain ([1]; patient PH-GRX, KS-C, 12,500 IU/week, Rx 17+ weeks, (diet)): -3 kg
- Weight gain ([1]; patient PH-MP, KS-C, 30,000 IU/week, Rx 24+ weeks): +3 Kg
- Weight gain ([1]; patient PH-OJ, KS-C, 12,500 IU/week, Rx 31+ weeks): +3 Kg
- Weight gain ([1]; patient PH-RF, KS-V, 15,000 IU/week, Rx 12+ weeks): +1 Kg
- Weight gain ([1]; patient PH-SP, KS-VC, 30,000 IU/week, Rx 8+ weeks): 0 kg
- Weight gain ([1]; patient PH-VE, KS-C, 12,500 IU/week, Rx 80+ weeks): +6 Kg
- Weight gain ([1]; patient PO-BO, KS-C, 12,500 IU/week, Rx 6+ weeks): +1.5 Kg
- Weight gain ([1]; patient PO-CJP, KS-C, 12,500 IU/week, Rx 6+ weeks): +1 Kg
- Weight gain ([1]; patient PO-DU, KS-VC, 12,500 IU/week, Rx 37+ weeks): +2 Kg
- Weight gain ([1]; patient PO-FY, KS-C, 12,500 IU/week, Rx 6+ weeks): +1.5 Kg
- Weight gain ([1]; patient PO-GE, KS-VC, 15,000 IU/week, Rx 48+ weeks): 0 kg
- Weight gain ([1]; patient PO-LC, KS-VC, 12,500 IU/week, Rx 12+ weeks): +1.5 Kg
- Weight gain ([1]; patient PO-RB, KS-VC, 12,500 IU/week, Rx 4+ weeks): +1 Kg
- Viral Load Rx (HIV-1; patient PH-DP (on RT inhibitors), No KS, 30,000 IU/week, Rx 8+ weeks, TCID, PreRX 100, 1 mo): 1
- Viral Load Rx (HIV-1; patient PH-GF, KS-C, 12,500 IU/week, NASBA, PreRX 1,100,000): 150,000 copies
- Viral Load Rx (HIV-1; [5]): 2,500 copies
- Viral Load Rx (HIV-1; patient PH-RF (on RT inhibitors), KS-V, 15,000 IU/week, NASBA (lower detection limit 4,000 copies), PreRX 69,000): < 4000 copies
- Viral Load Rx (HIV-1; [6]): 11,000 copies
- Viral Load Rx (HIV-1; patient PO-DU (on RT inhibitors), KS-VC, 12,500 IU/week, NASBA, PreRX 420,000): 300,000 copies

Substance: PA: codes P and A together: patient received both Pregnyl and APL hCG preparations
- CD4/mm^3 Rx (CD4+ T cells; patient PH-SPBE (on RT inhibitors), KS-C, 25,000 IU/week, Rx 29+ weeks, PreRX 48, M3): 174 /mm^3
- Weight gain ([1]; patient PH-SPBE, KS-C, 25,000 IU/week, Rx 29+ weeks): +1 Kg
- Viral Load Rx (HIV-1; [7]): 770,000 copies

Substance: human chorionic gonadotropin [hCG]
- CD4/mm^3 Rx (CD4+ T cells; [8]): 424 /mm^3
- rise in CD4+ T cell levels (CD4+ T cells; patient PG-4, no other antiviral therapy, 47 to 424 mm^3): 10 fold
- CD4/mm^3 Rx (CD4+ T cells; [2]): did not experience an increase
- CD4+ T cells (CD4+ T cells; Ritonavir therapy added at 22 weeks to ongoing hCG): over 300 mm^3
- CD4+ T cells (CD4+ T cells; systemic 25,000 then 40,000-60,000 IU per week, before Ritonavir): stabilized in the mid-100 mm^3 s
- CD4/mm^3 Rx (CD4+ T cells; [3]): 160 /mm^3
- CD4/mm^3 Rx (CD4+ T cells; [4]): 204 /mm^3
- weight gain in treated patients overall ([1]; hCG-treated patients, even some in the most advanced stages of HIV infection): Weight gain was recorded in a substantial portion of patients
- Weight gain ([1]; patient PH-GA, KS-C, 15,000 IU/week, Rx 12+ weeks): 0 kg
- last viral load measurement (HIV-1; patient PG2, Roche Amplicor, 10,496 copies before hCG, started Norvir after hCG): 15,542 copies
- drop in viral load (HIV-1; patient PG-1, on reverse transcriptase inhibitors at enrollment): 1 log
- last viral load measurement (HIV-1; patient PG-16, 47,931 copies before hCG, started Ritonavir after hCG): 370 copies
- last viral load measurement (HIV-1; patient PG-18, 3673 copies before hCG, started Crixivan after hCG): 1742 copies
- reduction in viral load (HIV-1; patient PH-DP, CDC stage B1 HIV disease without KS, TCID assay, no change in preexisting anti-viral therapy): 2 log
- Viral Load Rx (HIV-1; patient PH-GA, KS-C, 15,000 IU/week, Rx 12+ weeks, RT-PCR, PreRX 2,500): 500 copies
- viral load (HIV-1; patient PH-JPV, Roche Amplicor, 500,000 copies before hCG, week 4 of hCG alone): 4,900,000 copies
- viral load (HIV-1; patient PH-JPV, following indinavir (Crixivan) added after hCG induced pulmonary response): undetectable viral load
- Viral Load Rx (HIV-1; [5]): 2500 copies
- Viral Load Rx (HIV-1; [7]): 700,000 copies
- viral load (HIV-1; patient PH-SPBE, NASBA, after Ritonavir added to ongoing hCG treatment, 770,000 copies before): 120,000 copies
- viral load (HIV-1; patient PH-SPBE, NASBA, after Ritonavir added to ongoing hCG treatment, 770,000 copies before, listed as hCG preparation): reduced further
- Viral Load Rx (HIV-1; [6]): 11,000 copies
- decrease in viral load (HIV-1; patient PH-VE, NASBA, 230,000 to 11,000 copies, low dose intralesional then subcutaneous injections for 6 weeks): 1.5 log

Substance: APL: commercial crude hCG preparation from Wyeth-Ayerst Laboratories
- CD4/mm^3 Rx (CD4+ T cells; patient PG-1 (on RT inhibitors), KS-C, 35,000 IU/week, Rx 16+ weeks, PreRX 63, M4): 170 /mm^3
- CD4/mm^3 Rx (CD4+ T cells; patient PG-3 (on RT and protease inhibitors), KS-C, 35,000 IU/week, Rx 16+ weeks, PreRX 37, M4): 48 /mm^3
- CD4/mm^3 Rx (CD4+ T cells; [8]): 424 /mm^3
- CD4/mm^3 Rx (CD4+ T cells; patient PG-6 (on RT and protease inhibitors), KS-C, 35,000 IU/week, Rx 12+ weeks, PreRX 29, M3): 21 /mm^3
- CD4/mm^3 Rx (CD4+ T cells; patient PG-7, KS-C, 30,000 IU/week, Rx 10+ weeks, PreRX 108): 213 /mm^3
- CD4/mm^3 Rx (CD4+ T cells; patient PG-8, KS-C, 30,000 IU/week, Rx 12 weeks, PreRX 787): 678 /mm^3
- CD4/mm^3 Rx (CD4+ T cells; patient PG-9, KS-C, 30,000 IU/week, Rx 11+ weeks, PreRX 123): 218 /mm^3
- CD4/mm^3 Rx (CD4+ T cells; patient PG-10 (on RT inhibitors), KS-C, 30,000 IU/week, Rx 12 weeks, PreRX 82): 86 /mm^3
- CD4/mm^3 Rx (CD4+ T cells; patient PG-11 (on RT inhibitors), KS-C, 30,000 IU/week, Rx 4.5 weeks, PreRX 218): 361 /mm^3
- CD4/mm^3 Rx (CD4+ T cells; patient PG-12, KS-C, 30,000 IU/week, Rx 19+ weeks, PreRX 22): 46 /mm^3
- CD4/mm^3 Rx (CD4+ T cells; patient PG-15 (no other therapy), KS-C, 70,000 IU/week, Rx 8 weeks, PreRX 388): 483 /mm^3
- Weight gain ([1]; patient PG-1, KS-C, 35,000 IU/week, Rx 16+ weeks): -0.9 kg
- Weight gain ([1]; patient PG-3, KS-C, 35,000 IU/week, Rx 16+ weeks): +1.8 Kg
- Weight gain ([1]; patient PG-4, KS-C, 35,000 IU/week, Rx 16+ weeks): +1.4 Kg
- Weight gain ([1]; patient PG-6, KS-C, 35,000 IU/week, Rx 12+ weeks): +3.2 Kg
- Weight gain ([1]; patient PG-7, KS-C, 30,000 IU/week, Rx 10+ weeks): +4.5 Kg
- Weight gain ([1]; patient PG-8, KS-C, 30,000 IU/week, Rx 12 weeks): +2.3 Kg
- Weight gain ([1]; patient PG-9, KS-C, 30,000 IU/week, Rx 11+ weeks): -5.0 kg
- Weight gain ([1]; patient PG-10, KS-C, 30,000 IU/week, Rx 12 weeks): +2.3 Kg
- Weight gain ([1]; patient PG-11, KS-C, 30,000 IU/week, Rx 4.5 weeks): +5.4 Kg
- Weight gain ([1]; patient PG-12, KS-C, 30,000 IU/week, Rx 19+ weeks): +10.0 Kg
- Weight gain ([1]; patient PG-15, KS-C, 70,000 IU/week, Rx 8 weeks): +1.8 Kg
- Viral Load Rx (HIV-1; patient PG-1 (on RT inhibitors), KS-C, 35,000 IU/week, Roche Amplicor, PreRX 75,000): 1,700 copies
- Viral Load Rx (HIV-1; patient PG-3 (on RT and protease inhibitors), KS-C, 35,000 IU/week, Roche Amplicor, PreRX 52,000): 40,000 copies
- Viral Load Rx (HIV-1; patient PG-4, KS-C, 35,000 IU/week, Roche Amplicor, PreRX 80,900): 55,000 copies
- Viral Load Rx (HIV-1; patient PG-6 (on RT and protease inhibitors), KS-C, 35,000 IU/week, Roche Amplicor, PreRX 62,500): 98,000 copies
- Viral Load Rx (HIV-1; patient PG-8, KS-C, 30,000 IU/week, Roche Amplicor, PreRX 60.760): 22,313 copies
- Viral Load Rx (HIV-1; patient PG-10 (on RT inhibitors), KS-C, 30,000 IU/week, Roche Amplicor, PreRX 25,364): 6,777 copies
- Viral Load Rx (HIV-1; patient PG-11 (on RT inhibitors), KS-C, 30,000 IU/week, Roche Amplicor, PreRX 661): 260 copies
- Viral Load Rx (HIV-1; patient PG-15 (no other therapy), KS-C, 70,000 IU/week, Roche Amplicor, PreRX 6,162): 22,510 copies
